Anti-infective test results gathered from many reports (values: NIAID ChemDB through PubChem).

All rows: enzyme or target tests

An empty or dashed field is not shown. Two numbers with a dash give a range or band. Neighbouring rows are from separate reports. Percent inhibition refers to the dose given; in toxicity tests it is the harm to the cells. ICn: concentration for n% inhibition. Fold resistance: result on the changed form divided by that on wild type.

SMILES | target | changes | read by | strain or isolate | tested at | agent | endpoint | value
C[C@H]([C@@H](O)c1ccccc1)N(C(=O)c1ccc(Cl)cc1Cl)c1cc(-c2ccccc2)sc1C(=O)O.C[Si](C)C(C)(C)C | NS3 ATPase |  |  |  |  | Hepatitis C virus | IC50 | 5–20 µM
O=C(Nc1ccc2[nH]ncc2c1)c1cc(N2CCNCC2)c(F)cc1F | Reverse transcriptase |  |  |  |  | Hepatitis B virus | IC50 | 0.1–1 µg/mL
CC1CCC(C(=O)N(c2cc(-c3ccc(C#N)cc3)sc2C(=O)O)C(C)C)CC1 | NS3 ATPase |  |  |  |  | Hepatitis C virus | IC50 | <5 µM
O=C1CC(c2ccccc2)Oc2ccc(O)cc21 | Replicase complex |  | SYBR Green | J4 | 20 µM | Hepatitis C virus | inhibition | 4.1%
CSCC[C@H](NC(=O)[C@H](CCC(=O)O)NC(=O)[C@H](CC(=O)O)NC(C)=O)C(=O)N[C@@H](CCC(=O)O)C(=O)N[C@@H](Cc1ccc2ccccc2c1)C(=O)N[C@@H](CS)C(=O)O | HCV NS3 protease |  |  |  |  | Hepatitis C virus | IC50 | 0.8 µM
CN1CCNCCC1c1cc(C(=O)Nc2ccc3cn[nH]c3c2)c(F)cc1F | Reverse transcriptase |  |  |  |  | Hepatitis B virus | IC50 | 0.1–1 µg/mL
CC1CCC(C(=O)N(c2cc(-c3ccc(C(F)(F)F)cc3)sc2C(=O)O)C(C)C)CC1 | NS3 ATPase |  |  |  |  | Hepatitis C virus | IC50 | <5 µM
O=C(Nc1ccc2[nH]ncc2c1)c1cc(C2CCNCCN2)c(F)cc1F | Reverse transcriptase |  |  |  |  | Hepatitis B virus | IC50 | 0.1–1 µg/mL
O=C(O)[C@H](Cc1ccccc1)N(Cc1ccc(-c2cc3ccccc3o2)o1)C(=O)c1ccc(Cl)cc1Cl | RNA-dependent RNA polymerase |  |  |  |  | Hepatitis C virus | IC50 | <5 µM
O=c1cc(-c2cc(O)c(O)c(O)c2)oc2cc(O)cc(O)c12 | Replicase complex |  | SYBR Green | J4 | 20 µM | Hepatitis C virus | inhibition | 69.5%
CSCC[C@H](NC(=O)[C@H](CCC(=O)O)NC(=O)[C@@H](CC(=O)O)NC(C)=O)C(=O)N[C@@H](CCC(=O)O)C(=O)N[C@@H](CCC(=O)O)C(=O)N[C@@H](CS)C(=O)O | HCV NS3 protease |  |  |  |  | Hepatitis C virus | IC50 | 1 µM
CN1CCNCCC1c1cc(C(=O)Nc2ccc3[nH]ncc3c2)c(F)cc1F | Reverse transcriptase |  |  |  | 0.01 µg/mL | Hepatitis B virus | inhibition | 40%
CC(C)CC(=O)N(Cc1ccc([N+](=O)[O-])cc1)c1cc(-c2ccccc2)sc1C(=O)O | NS3 ATPase |  |  |  |  | Hepatitis C virus | IC50 | <5 µM
O=c1cc(-c2ccc(O)cc2)oc2cc(O)cc(O)c12 | Replicase complex |  | SYBR Green | J4 | 20 µM | Hepatitis C virus | inhibition | 62.5%
C=C[C@@H]1C[C@]1(NC(=O)[C@@H]1C[C@@H](Oc2nccc3ccc(Br)cc23)CN1C(C)=O)C(=O)NS(=O)(=O)C1CC1 | Nonstructural protein 3/4A |  | FRET | 1b A156S |  | Hepatitis C virus | IC50 | >3 µM
CC(=O)Nc1ccc(-c2cc(NS(=O)(=O)c3ccccc3C)c(C(=O)O)s2)cc1 | NS3 ATPase |  |  |  |  | Hepatitis C virus | IC50 | 5–20 µM
O=C(O)[C@H](Cc1ccccc1)N(Cc1cccc(-c2cc3ccccc3o2)c1)C(=O)Cc1ccc(Cl)cc1Cl | RNA-dependent RNA polymerase |  |  |  |  | Hepatitis C virus | IC50 | <5 µM
Cc1ccc(S(=O)(=O)Nc2cc(-c3ccsc3)sc2C(=O)O)cc1 | NS3 ATPase |  |  |  |  | Hepatitis C virus | IC50 | 5–20 µM
O=C1CC(c2ccccc2)Oc2ccccc21 | Replicase complex |  | SYBR Green | J4 | 20 µM | Hepatitis C virus | inhibition | 7.5%
Cc1ccccc1S(=O)(=O)Nc1cc(-c2cccs2)sc1C(=O)O | NS3 ATPase |  |  |  |  | Hepatitis C virus | IC50 | <5 µM
O=C1c2ccc(O)cc2OC(c2ccc(O)c(O)c2)C1O | Replicase complex |  | SYBR Green | J4 | 20 µM | Hepatitis C virus | inhibition | 14.5%
C=Cc1cc(Cl)ccc1C(=O)N(Cc1cccc(Br)c1)[C@@H](Cc1ccccc1)C(=O)O | RNA-dependent RNA polymerase |  |  |  |  | Hepatitis C virus | IC50 | <5 µM
CC(=O)N[C@@H](CCC(=O)O)C(=O)N[C@H](C(=O)N[C@@H](CCC(=O)O)C(=O)N[C@@H](CC1CCCCC1)C(=O)N[C@@H](CS)C(=O)O)C(c1ccccc1)c1ccccc1 | Full-length NS3 |  |  |  |  | Hepatitis C virus | IC50 | 0.5511 µM
O=C(Nc1ccc2cn[nH]c2c1)c1cc(N2CCNCC2)c(F)cc1F | Reverse transcriptase |  |  |  | 0.01 µg/mL | Hepatitis B virus | inhibition | 18%
O=C(O)c1sc(-c2ccccc2)cc1N(Cc1ccc(C(F)(F)F)cc1)C(=O)C1CCC1 | NS3 ATPase |  |  |  |  | Hepatitis C virus | IC50 | 5–20 µM
C[C@@]1(O)[C@H](O)[C@@H](COP(=O)(O)OP(=O)(O)OP(=O)(O)O)O[C@@]1(C#N)c1ccc2c(N)ncnn12 | Nonstructural protein 5B | S282T M289L | radiometric | 2a JFH-1 |  | Hepatitis C virus | fold resistance | 470
O=c1cc(-c2ccc(O)cc2)oc2cc(O)c(O)c(O)c12 | Replicase complex |  | SYBR Green | J4 | 20 µM | Hepatitis C virus | inhibition | 67.4%
CC(C)C[C@H](NC(=O)[C@@H](CCC(=O)O)NC(=O)[C@@H](N)CC(=O)O)C(=O)N[C@@H](CCC(=O)O)C(=O)N[C@@H](CC1CCCCC1)C(=O)N[C@@H](CS)C(=O)O | Full-length NS3 |  |  |  |  | Hepatitis C virus | IC50 | 2.57 µM
Cc1ccccc1S(=O)(=O)Nc1cc(-c2cccc(OC(F)(F)F)c2)sc1C(=O)O | NS3 ATPase |  |  |  |  | Hepatitis C virus | IC50 | 5–20 µM
O=C1C[C@@H](c2ccc(O)cc2)Oc2cc(O)cc(O)c21 | Replicase complex |  | SYBR Green | J4 | 20 µM | Hepatitis C virus | inhibition | 6%
CSCC[C@H](NC(=O)[C@H](CCC(=O)O)NC(=O)[C@H](CC(=O)O)NC(C)=O)C(=O)N[C@@H](CCC(=O)O)C(=O)N[C@@H](CC1CCCCC1)C(=O)N[C@@H](CS)C(=O)O | Full-length NS3 |  |  |  |  | Hepatitis C virus | IC50 | 1.74 µM
O=c1c(O)c(-c2ccc(O)c(O)c2)oc2cc(O[C@@H]3O[C@H](CO)[C@@H](O)[C@H](O)[C@H]3O)c(O)c(O)c12 | Replicase complex |  | SYBR Green | J4 | 20 µM | Hepatitis C virus | inhibition | 42.5%
O=C(O)[C@H](Cc1ccccc1)N(Cc1ccc(-c2nc3ccccc3o2)cc1)c1ccc(Cl)cc1Cl | RNA-dependent RNA polymerase |  |  |  |  | Hepatitis C virus | IC50 | <5 µM

3 of the rows above, restated:

SMILES	target	changes	read by	strain or isolate	tested at	agent	endpoint	value
O=C(O)c1sc(-c2ccccc2)cc1N(Cc1ccc(C(F)(F)F)cc1)C(=O)C1CCC1	NS3 ATPase					Hepatitis C virus	IC50	5–20 µM
CC(=O)Nc1ccc(-c2cc(NS(=O)(=O)c3ccccc3C)c(C(=O)O)s2)cc1	NS3 ATPase					Hepatitis C virus	IC50	5–20 µM
C[C@@]1(O)[C@H](O)[C@@H](COP(=O)(O)OP(=O)(O)OP(=O)(O)O)O[C@@]1(C#N)c1ccc2c(N)ncnn12	Nonstructural protein 5B	S282T M289L	radiometric	2a JFH-1		Hepatitis C virus	fold resistance	470